Anti-infective test results gathered from many reports (values: NIAID ChemDB through PubChem).

Common to all: growth or infection tests; species: Mycobacterium tuberculosis

ECn is the concentration giving n% inhibition of infection, replication or growth. MIC50, MIC90 and the like: level of inhibition, or share of isolates inhibited. MIC bound: limit read from a one-dose screen. Inhibition is in % at the dose shown (toxicity tests: loss of growth or viability). Rows are shuffled and stem from different studies. An empty or dashed field is not shown.

SMILES | method | read-out | setting | dose | cell line | strain | result
Cc1oc(NC(=O)C(=O)O)c(C#N)c1C | BACTEC | MIC bound |  |  |  | H37Rv | >12.5 µg/mL
C[C@H]1COc2c(N3CCN(C(c4ccccc4)c4ccc(Cl)cc4)CC3)c(F)cc3c(=O)c(C(=O)O)cn1c23 | agar | MIC |  |  |  |  | 5.71 µM
O=c1c(O)c(-c2ccc(O)cc2O)oc2cc(O)cc(O)c12 | BACTEC | MIC |  |  |  | H37Rv | ≥128 µg/mL
COc1ccc(C2C(C(=O)Nc3cc(C)ccc3C)=C(C)NC(C)=C2C(=O)Nc2cc(C)ccc2C)cc1 |  | EC50 |  |  |  | H37Rv | >2.5 µg/mL
CCOC(=O)Nc1ccc(SCC2COC(Cn3ccnc3)(c3ccc(Cl)cc3Cl)O2)cc1 | resazurin | MIC bound |  |  |  | H37Rv | >6.25 µg/mL
C[C@H]1COc2c(N3CCN(C)CC3)c(F)cc3c(=O)c(C(=O)O)cn1c23 |  | MIC |  |  |  | 483-8 | 0.5 µg/mL
CCCN(C)C(=O)COc1cc2c(O)c3c(O)c(C)c4c(c13)C(=O)[C@@](C)(O/C=C/[C@H](OC)[C@@H](C)[C@@H](OC(C)=O)[C@H](C)[C@H](O)[C@H](C)[C@@H](O)[C@@H](C)/C=C/C=C(/C)C(=O)N2)O4 |  | MIC |  |  |  | H37Rv | 0.09 µg/mL
CC(=O)Nc1ccc(OCC(=O)NN2C(=O)C(C)SC2c2ccccc2[N+](=O)[O-])cc1 |  | EC50 |  |  |  | H37Rv | >12.5 µg/mL
NNC(=O)c1ccncc1 |  | MIC |  |  |  | 6S | 0.1 µg/mL
Cc1cc(C)c2c(n1)S(=O)(=O)N/C(=C(/O)c1ccccc1)C2=O |  | inhibition |  | 12.5 µg/mL |  | H37Rv | 37%
O=C(O)c1cn(-c2ccc(F)cc2F)c2cc(N3CCN(C(=O)c4ccco4)CC3)c(F)cc2c1=O |  | MIC |  |  |  | ATCC35801 | 6.29 µM
O=C1CCc2cc(N3CCN(C(=O)c4cccc(Cl)c4)CC3)ccc21 | turbidity | MIC90 |  |  |  | BioA overexpression strain | 49.1 µM
O=Cc1ccc(Sc2nnc(N3CCN(c4nc(N5CCN(c6ccccc6)CC5)c5ccccc5n4)CC3)o2)cc1 | BACTEC / fluorescence | MIC |  |  |  | H37Rv | >6.25 µg/mL
CC(=O)Nc1ccc(OCC(=O)NN2C(=O)CSC2c2ccccc2)cc1 |  | inhibition |  | 12.5 µg/mL |  | H37Rv | 0%
CC(=O)c1ccccc1NNC(=O)N1CCN(c2nc(N3CCN(c4ccccc4)CC3)c3ccccc3n2)CC1 | agar / visual reading | inhibition |  | 6.25 µg/mL |  | H37Rv | 99%
O=C(O)c1cc2oc(-c3ccccc3)cc2[nH]1 | BACTEC | MIC bound |  |  |  | H37Rv | >12.5 µg/mL
Cc1cccc(C(N)=Nc2nc(-c3ccccn3)cc3ccccc23)c1 |  | MIC |  |  |  | J-2847 | 0.5 µg/mL
CCc1[nH]nc(C(N)=O)c1N=NN(C)C | BACTEC | inhibition |  | 12.5 µg/mL |  | H37Rv | 16%
C[C@H]1COc2c(N3CCN(C)CC3)c(F)cc3c(=O)c(C(=O)O)cn1c23 |  | MBC |  |  |  | 001-010 (drug-resistant) | 1 µg/mL
NNC(=O)c1ccncc1 |  | MIC |  |  |  | ATCC35801 | 0.36 µM
CO[C@H]1/C=C/O[C@@]2(C)Oc3c(C)c(O)c4c(O)c(cc(OCC(=O)NC(C)(C)C)c4c3C2=O)NC(=O)/C(C)=C\C=C\[C@H](C)[C@H](O)[C@@H](C)[C@@H](O)[C@@H](C)[C@H](OC(C)=O)[C@@H]1C |  | MIC |  |  |  | H37Rv | 0.09 µg/mL
CC1=C(C(=O)Nc2ccccc2)C(c2cccc([N+](=O)[O-])c2)C(C(=O)Nc2ccccc2)=C(C)N1 |  | EC50 |  |  |  | H37Rv | <2.5 µg/mL
O=C(Cc1cccs1)N/N=C/c1ccc[nH]1 | resazurin | MIC |  |  |  | H37Rv (ATCC 27294) | >100 µg/mL
COc1ccccc1NC(=O)C1=C(C)NC(C)=C(C(=O)Nc2ccccc2OC)C1c1ccc(Cl)cc1Cl |  | inhibition |  | 2.5 µg/mL |  | H37Rv | 91%
CC(=O)Oc1ccccc1C(=O)Nc1ncc([N+](=O)[O-])s1 | visual reading | MIC |  |  |  | ND | 20 µg/mL
COc1ccc2cc3[n+](cc2c1O)CCc1cc2c(cc1-3)OCO2 | BACTEC | MIC bound |  |  |  | H37Rv | >12.5 µg/mL
CC1=C(C(=O)Nc2ccc(Cl)cc2)C(c2ccc(O)cc2)C(C(=O)Nc2ccc(Cl)cc2)=C(C)N1 |  | EC50 |  |  |  | H37Rv | <2.5 µg/mL
CC(=O)O[C@H]1C(=O)[C@]2(C)[C@@H](OC(C)=O)C[C@H]3OC[C@@]3(OC(C)=O)[C@H]2[C@H](OC(=O)c2ccccc2)[C@]2(O)C[C@H](OC(=O)[C@H](OC(C)=O)[C@@H](NC(=O)c3ccccc3)c3ccccc3)C(C)=C1C2(C)C |  | MIC |  |  | VERO | H37Rv | 6.25 µg/mL
CC(=O)c1ccc(N2CCN(C(=O)c3ccc4c(c3)OCCO4)CC2)cc1 | turbidity | MIC50 |  |  |  | BioA overexpression strain | >50 µM
C#CCN1C(=O)c2c(C)cc(C)nc2S1(=O)=O |  | inhibition |  | 12.5 µg/mL |  | H37Rv | 0%
CC(=O)c1ccc(N2CCC(C(=O)c3cccc(Cl)c3)CC2)cc1 | turbidity | MIC90 |  |  |  | Wild type without biotin | >50 µM
C[C@H]1COc2c(N3CCN(C(=O)c4ccco4)CC3)c(F)cc3c(=O)c(C(=O)O)cn1c23 | agar | MIC99 |  |  |  |  | 7.09 µM
N#CC1(c2nc3ccccc3o2)C(=O)C(=O)N(C2C3CC4CC(C3)CC2C4)C(=O)C1=O | resazurin | MIC |  |  | VERO | H37Rv | 6.25 µg/mL
Cc1noc(-c2ccc(N3CCN(C(=O)c4cccc(Cl)c4)CC3)cc2)n1 | turbidity | MIC50 |  |  |  | BioA overexpression strain | >50 µM
CCCN(CCC)N(C)C(=O)COc1cc2c(O)c3c(O)c(C)c4c(c13)C(=O)[C@@](C)(O/C=C/[C@H](OC)[C@@H](C)[C@@H](OC(C)=O)[C@H](C)[C@H](O)[C@H](C)[C@@H](O)[C@@H](C)/C=C/C=C(/C)C(=O)N2)O4 |  | MIC |  |  |  | H37Rv | 0.37 µg/mL
CC(=O)C1(C(C)=O)C2=C(C(=O)C(Cl)=C(Cl)C2=O)N2C=CC=CC21 | resazurin | inhibition |  | 6.25 µg/mL |  | H37Rv | 17%
O=[N+]([O-])[O][Ga]([O][N+](=O)[O-])[O][N+](=O)[O-] |  | EC50 | inside macrophages |  |  | Erdman | <500 µM
COc1ccc(C2SCC(=O)N2NC(=O)COc2ccc(NC(C)=O)cc2)cc1OC |  | EC50 |  |  |  | H37Rv | >12.5 µg/mL
CC(=O)NC[C@H]1CN(c2ccc(N3CCOCC3)c(F)c2)C(=O)O1 |  | MIC |  |  |  | 8S | 0.5 µg/mL
NC(=O)c1cnccn1 |  | MIC |  |  |  | Isolate M49586 | >900 µg/mL
NNC(=O)c1ccncc1 | resazurin | MIC |  |  |  | XDR-83 | 8 µg/mL
CCCCCCCCCCC/C=N/Nc1ccc([N+](=O)[O-])cn1 | BACTEC | inhibition |  | 12.5 µg/mL |  | H37Rv | 85%
C[C@@H]1CN(c2c(F)c(N)c3c(=O)c(C(=O)O)cn(C4CC4)c3c2F)C[C@H](C)N1 |  | MIC |  |  |  | 900233 | 0.1 µg/mL
Cc1cc(C)c2c(n1)S(=O)(=O)N(CC(=O)c1ccccn1)C2=O |  | MIC |  |  |  | H37Rv | >12.5 µg/mL
NC(=O)c1cnccn1 |  | MIC |  |  |  | Isolate 98-30 | 900 µg/mL
CC(C)(C)n1cc(C(=O)O)c(=O)c2cc([N+](=O)[O-])c(N3CCC4(CC3)OCCO4)cc21 |  | MIC |  |  |  | ATCC35801 | 3.86 µM
NC(=S)N/N=C/c1cn(Cc2ccccc2)c2ccccc12 |  | MIC |  |  | VERO | H37Rv | 1.56 µg/mL
O=C(Cc1cccs1)N/N=C/c1ccc(O)c(O)c1 | resazurin | MIC |  |  |  | H37Rv (ATCC 27294) | 361.9 µM
O=C(CN1CCN(c2ccccn2)CC1)N1CCCn2c1nc1ccccc1c2=O | BACTEC | inhibition |  | 12.5 µg/mL |  | H37Rv | 0%
CC(=O)c1ccc(N2CCN(C(=O)c3cncc(Cl)c3)CC2)cc1 | turbidity | MIC50 |  |  |  | BioA overexpression strain | >50 µM
c1ccc(Sc2nnc(N3CCN(c4nc(N5CCN(c6ccccc6)CC5)c5ccccc5n4)CC3)o2)cc1 | BACTEC / fluorescence | inhibition |  | 6.25 µg/mL |  | H37Rv | 0%
Cc1ccc(NC(=O)Nc2ccccc2Cl)cc1Cl | BACTEC | inhibition |  | 12.5 µg/mL |  | H37Rv | 72%
COc1ccc(C2SCC(=O)N2NC(=O)COc2ccc(NC(C)=O)cc2)cc1 |  | inhibition |  | 12.5 µg/mL |  | H37Rv | 0%
OC[C@H]1NC[C@@H](O)[C@@H](O)[C@@H]1O | BACTEC | MIC |  |  |  | H37Rv | ≥12.5 µg/mL
O=C1CCc2cc(N3CCN(C(=O)c4ccc5c(c4)OCO5)CC3)ccc21 | turbidity | MIC90 |  |  |  | Wild type without biotin | 7.1 µM
C[C@H]1COc2c(N3CCN(Cc4ccc5c(c4)OCO5)CC3)c(F)cc3c(=O)c(C(=O)O)cn1c23 | agar | MIC99 |  |  |  |  | 6.5 µM
Cc1cc(C)c2c(=O)n(CC(O)CN3CCN(CCO)CC3)sc2n1 |  | inhibition |  | 12.5 µg/mL |  | H37Rv | 15%
CC(=O)OC(C)(C)/C=C/C(=O)C(C)(O)C1C(O)CC2(C)C3CC=C4C(CC(O)C(=O)C4(C)C)C3(C)C(=O)CC12C | BACTEC | MIC |  |  |  | H37Rv | ≥12.8 µg/mL
CC1CN(c2c(F)cc3c(=O)c(C(=O)O)cn4c3c2OC[C@@H]4C)CC(C)O1 | agar | MIC99 |  |  |  | MDR-TB | 4.14 µM
Cc1cc(O)c2c(c1)C(=O)c1c(oc3c1c(=O)oc1cccc(C)c13)C2=O |  | MIC |  |  |  | MTCS1 | 4.88 µg/mL
CC(=O)Nc1ccc(OCC(=O)NN2C(=O)C(C)SC2c2ccc(O)cc2)cc1 |  | inhibition |  | 12.5 µg/mL |  | H37Rv | 0%
CC(C)(C)n1cc(C(=O)O)c(=O)c2cc(F)c(N3CCN(C(c4ccccc4)c4ccc(Cl)cc4)CC3)cc21 |  | MIC |  |  |  | ATCC35801 | 1.42 µM
NCCCN1c2ccccc2Sc2ccccc21 | resazurin | MIC |  |  |  | STB-9102 | 2 µg/mL
COC(=O)C1=COC(C)C2CN3CCc4c([nH]c5cc(OC)c(OC)cc45)C3CC12.O=C(O)CC(O)(CC(=O)O)C(=O)O | BACTEC | inhibition |  | 128 µg/mL |  | H37Rv | 89%
CC(C)(C)n1cc(C(=O)O)c(=O)c2cc(F)c(N3CCSCC3)cc21 |  | MIC |  |  |  | ATCC35801 | 8.59 µM
Oc1c(CN2CCN(c3ccccc3)CC2)cc(Br)c2cccnc12 | resazurin | inhibition |  | 6.25 µg/mL |  | H37Rv | 56%
O=C(Cc1cccs1)N/N=C/c1ccncc1 | resazurin | MIC |  |  |  | H37Rv (ATCC 27294) | >100 µg/mL
CO[C@H]1/C=C/O[C@@]2(C)Oc3c(C)c(O)c4c(O)c(cc(OCC(=O)N(C)Cc5ccccc5)c4c3C2=O)NC(=O)/C(C)=C\C=C\[C@H](C)[C@H](O)[C@@H](C)[C@@H](O)[C@@H](C)[C@H](OC(C)=O)[C@@H]1C |  | MIC |  |  |  | H37Rv | 0.37 µg/mL
O=[N+]([O-])c1ccccc1Sc1nnc(N2CCN(c3nc(N4CCN(c5ccccc5)CC4)c4ccccc4n3)CC2)o1 | BACTEC / fluorescence | inhibition |  | 6.25 µg/mL |  | H37Rv | 0%
CC1CN(c2cc3c(cc2F)c(=O)c(C(=O)O)cn3C2CC2)CC(C)O1 |  | MIC |  |  |  | ATCC35801 | 1.08 µM
CC(C(=O)O)n1c(=O)ssc1=O | BACTEC | MIC bound |  |  |  | H37Rv | >12.5 µg/mL
Cc1cc(C)c2c(n1)S(=O)(=O)N(CCO)C2=O |  | inhibition |  | 12.5 µg/mL |  | H37Rv | 29%
CO[C@H]1/C=C/O[C@@]2(C)Oc3c(C)c(O)c4c(=O)c(c5oc6cc(N7CCN(CC(C)C)CC7)cc(=O)c6nc5c4c3=C2O)NC(=O)/C(C)=C\C=C\[C@H](C)[C@H](O)[C@@H](C)[C@@H](O)[C@@H](C)[C@H](OC(C)=O)[C@@H]1C |  | MIC |  |  |  | H37Rv-pSL (Leu 531 mutation) | 8 µg/mL
COc1cccc(/C=N/NC(=O)Cc2cccs2)c1 | resazurin | MIC |  |  |  | H37Rv (ATCC 27294) | >100 µg/mL
CCOC(=O)C1=C(NC)C(=O)N(C)C1c1ccccc1 | BACTEC | inhibition |  | 12.8 µg/mL |  | H37Rv | 22%
Cc1ccccc1Sc1nnc(N2CCN(c3nc(N4CCN(c5ccccc5)CC4)c4ccccc4n3)CC2)o1 | BACTEC / fluorescence | inhibition |  | 6.25 µg/mL |  | H37Rv | 0%
Cc1nn2c(=O)c([N+](=O)[O-])c(/C=C/c3ccccc3)nc2s1 | resazurin | inhibition |  | 6.25 µg/mL |  | H37Rv | 30%
COc1cc2c(cc1OC)CN(c1c(F)cc3c(=O)c(C(=O)O)cn4c3c1OCC4C)CC2 | agar | MIC99 |  |  |  | MDR-TB | 3.43 µM

A second listing of 5 rows from above:

| SMILES | method | read-out | setting | dose | cell line | strain | result |
|---|---|---|---|---|---|---|---|
| O=Cc1ccc(Sc2nnc(N3CCN(c4nc(N5CCN(c6ccccc6)CC5)c5ccccc5n4)CC3)o2)cc1 | BACTEC / fluorescence | MIC |  |  |  | H37Rv | >6.25 µg/mL |
| O=C(Cc1cccs1)N/N=C/c1ccc[nH]1 | resazurin | MIC |  |  |  | H37Rv (ATCC 27294) | >100 µg/mL |
| Cc1noc(-c2ccc(N3CCN(C(=O)c4cccc(Cl)c4)CC3)cc2)n1 | turbidity | MIC50 |  |  |  | BioA overexpression strain | >50 µM |
| CC1CN(c2c(F)cc3c(=O)c(C(=O)O)cn4c3c2OC[C@@H]4C)CC(C)O1 | agar | MIC99 |  |  |  | MDR-TB | 4.14 µM |
| C[C@H]1COc2c(N3CCN(C)CC3)c(F)cc3c(=O)c(C(=O)O)cn1c23 |  | MBC |  |  |  | 001-010 (drug-resistant) | 1 µg/mL |